A mixed list of measured activities; the numbers were collected in NIAID ChemDB.

All rows: toxicity to cultured cells; cell line: HEL; endpoint: CC50

An empty or dashed field is not shown. CCn is the concentration with n% toxicity to the cells. Neighbouring rows are from separate reports.

smiles | read by | value
CCCCCCCCCCc1cc2cnc(OCC3CCCCC3)nc2o1 | - | >200 µM
COc1ccc(C=NNC(=O)COc2cccc3ccccc23)cc1O | - | 27.7 µg/mL
CC(C)C[C@H](NC(=O)n1nnc2ccccc21)C(=O)NC1CCCCC1 | - | 76 µg/mL
CC#Cc1nc2c(N)ncnc2n1[C@H]1C[C@H](O)[C@@H](CO)O1 | - | 40 µg/mL
Cc1c(Br)cc(Br)c2ncc(CSC(C)c3cccs3)n12 | - | >50 µg/mL
CC(C)C[C@H](NC(=O)n1nnc2ccccc21)C(=O)NC(c1ccccc1)c1ccccc1 | - | 40 µg/mL
CN1CCCC1C12CC3CC(CC(C3)C1)C2 | - | >50 µg/mL
CCCCc1cc2cn(C(CC)CC)c(=O)nc2o1 | - | >200 µM
CON=C[C@H]1O[C@@H](n2cnc3c(N)ncnc32)[C@H](O)[C@@H]1O | - | >50 µg/mL
CCCCCCCCCCc1cc2cn(Cc3ccc(C)cc3)c(=O)nc2o1 | - | >200 µM
C[C@H](Cn1cnc2c(N)nc(N)nc21)OCP(=O)(O)O | - | >150 µM
Cc1cccc(C(C#N)S(=O)c2cccc[n+]2[O-])c1 | - | <0.2 µg/mL
N#CC1=C(c2ccccc2)Nc2sccc2S1(=O)=O | - | >50 µg/mL
CC(C)[C@H](NC(=O)n1nnc2ccccc21)C(=O)NC1CCCC1 | - | >200 µg/mL
Cc1ccc(CS(=O)(=O)c2cccc[n+]2[O-])cc1 | - | 24 µg/mL
CC1(C)[C@@H](CCO)C[C@H]1n1nnc2c(=O)[nH]cnc21 | - | 37 µg/mL
O=c1[nH]c(=O)n([C@H]2C[C@H](O)[C@@H](CO)O2)cc1/C=C/Br | - | >400 µM
CCCCCCCCCCc1cc2cnc(OC3CCCCC3)nc2o1 | - | >200 µM
[O-][n+]1cc(Cl)ccc1SCc1ccccc1 | - | 66 µg/mL
CC(C)(C)c1nc2ccccn2c1NC(=O)Nc1ccccc1 | - | >50 µg/mL
CC(C)CCOCCCCCCCCCc1cc2cn([C@H]3C[C@H](O)[C@@H](CO)O3)c(=O)nc2o1 | - | >200 µM
CCCCCCCCCCc1cc2cn(Cc3ccccc3)c(=O)nc2o1 | - | >200 µM
C1CNC(C23CC4CC(CC(C4)C2)C3)C1 | - | ≥200 µg/mL
N#Cc1ccc(CS(=O)(=O)c2cccc[n+]2[O-])cc1 | - | 12 µg/mL
O=C(COc1cccc2ccccc12)NN=Cc1c[nH]c2ccccc12 | - | >100 µg/mL
Cc1cccn2c(CSCc3ccccc3)cnc12 | - | 8 µg/mL
O=c1nc2oc(CCCC3OCCO3)cc2cn1[C@H]1C[C@H](O)[C@@H](CO)O1 | - | >200 µM
CCCCCCCCCCCCc1cc2cn([C@H]3C[C@H](O)[C@@H](CO)O3)c(=O)nc2o1 | - | >200 µM
CC(=O)OCC(C)(O)C(C)C(C)C(OC(C)=O)C1OC12C(O)CC1C3CCC4CC(=O)CCC4C3CCC12COC(C)=O | MTT | >50 µg/mL
Cc1ccc(N)cc1C(C)S(=O)(=O)c1cccc[n+]1[O-] | - | >50 µg/mL
CCCCCCCCCCc1cc2cn(C3CCOC3)c(=O)nc2o1 | - | 148 µM
Nc1ccn(C[C@H]2COP(=O)(O)CO2)c(=O)n1 | - | >200 µg/mL
Nc1ncnc2c1ncn2[C@@H]1O[C@H](C(O)O)[C@@H](O)[C@@H]1O | - | >50 µg/mL
COC(=O)C(c1cccc(Oc2ccccc2)c1)S(=O)(=O)c1cccc[n+]1[O-] | - | 9.6 µg/mL
CCCCCCCCCCCc1cc2cn([C@H]3C[C@H](O)[C@@H](CO)O3)c(=O)nc2o1 | - | >200 µM
Cc1cc[n+]([O-])c(S(=O)(=O)Cc2ccc(Cl)cc2)c1 | - | 20 µg/mL
O=c1[nH]c(=O)n([C@H]2C[C@H](O)[C@@H](CO)O2)cc1-c1cc(Br)no1 | - | >50 µg/mL
O=S(=O)(Cc1cccc(Br)c1)c1cccc[n+]1[O-] | - | 7.4 µg/mL
CCCCC/C=C\c1nc2c(N)ncnc2n1[C@H]1C[C@H](O)[C@@H](CO)O1 | - | 20 µg/mL
CCON=C[C@H]1O[C@@H](n2cnc3c(N)ncnc32)[C@H](O)[C@@H]1O | - | >50 µg/mL
Cc1ccc(C)c(CS(=O)(=O)c2cccc[n+]2[O-])c1C | - | 11 µg/mL
Nc1ncnc2c1ncn2[C@@H]1C[C@H](CO)[C@@H](O)[C@@H]1O | - | 23 µM
CCCCCCCc1cc2cnc(=O)[nH]c2o1 | - | >200 µM
CC(=NNC(=O)COc1cccc2ccccc12)c1ccc(Cl)cc1 | - | 7.1 µg/mL
CCCCCCCc1cc2cnc(OC(CC)CC)nc2o1 | - | 98 µM
CN(Cc1ccc(-c2ccccc2)cc1)Cc1c(O)cc2c(c1O)-c1cc(ccc1O)[C@H]1NC(=O)[C@@H]3NC(=O)[C@H]4NC(=O)[C@@H](Cc5ccc(c(Cl)c5)Oc5cc3cc(c5O)Oc3ccc(cc3Cl)[C@@H](O)[C@H](NC1=O)C(=O)N[C@@H]2C(=O)O)NC(=O)[C@H](N)c1ccc(O)c(c1)Oc1cc(O)cc4c1 | - | >50 µM
N#CC1C(c2ccccc2)Nc2ccccc2S1(=O)=O | - | >50 µg/mL
CCCCCCCCCCC#Cc1cn(S(=O)(=O)c2ccc(C)cc2)c(=O)[nH]c1=O | - | 85 µM
CC1(C)[C@@H](CCO)C[C@H]1n1cnc2c(=O)[nH]cnc21 | - | >50 µg/mL
Nc1ccn(C[C@@H](CO)OCP(=O)(O)O)c(=O)n1 | - | 50 µg/mL
CCCCCCCCc1cc2cnc(=O)[nH]c2o1 | - | >200 µM
CC1(C)[C@@H](CCO)C[C@H]1n1cnc2c(N)ncnc21 | - | 40 µg/mL
Nc1nc(N)c2ncn(C[C@H](CF)OCP(=O)(O)O)c2n1 | - | >600 µM
Cc1nc2ccccn2c1NC(=O)c1ccccc1 | - | >50 µg/mL
Cc1cc(I)c2ncc(CSCCc3ccccc3)n2c1 | - | >50 µg/mL
Nc1nc2c(ncn2CC(CO)OCP(=O)(O)O)c(=O)[nH]1 | - | 10 µg/mL
N#CC1C(c2ccc(Cl)cc2)Nc2c(ccn2Cc2ccccc2)S1(=O)=O | - | >20 µg/mL
Nc1nc(N)c2ncn(CC(CO)OCP(=O)(O)O)c2n1 | - | >200 µg/mL
Cc1cccc(CSCc2cnc3c(Br)cc(Br)c(C)n23)c1 | - | 35 µg/mL
CCCCCCCCCCC#Cc1c[nH]c(=O)[nH]c1=O | - | >200 µM
Nc1nc(N)c2ncn(C[C@@H](CF)OCP(=O)(O)O)c2n1 | - | >150 µM
Cc1ccc(C)c(C(CO)S(=O)(=O)c2ccccn2)c1 | - | >20 µg/mL
CCCCCOCCCCCCCCCc1cc2cn([C@H]3C[C@H](O)[C@@H](CO)O3)c(=O)nc2o1 | - | >200 µM
CCCCCCCCCCCC(c1cc(C)ccc1C)S(=O)(=O)c1cccc[n+]1[O-] | - | >20 µg/mL
CCc1nc2c(N)ncnc2n1[C@H]1C[C@H](O)[C@@H](CO)O1 | - | >200 µg/mL
Cc1c(Br)cc(Br)c2ncc(CSCc3cccs3)n12 | - | >50 µg/mL
Cc1ccc(C)c(C(Cl)S(=O)(=O)c2cccc(C)[n+]2[O-])c1 | - | ≥100 µg/mL
N[C@H]1C(=O)N[C@@H]2Cc3ccc(c(Cl)c3)Oc3cc4cc(c3OCc3ccc(-c5ccccc5)cc3)Oc3ccc(cc3Cl)[C@@H](O)[C@@H]3NC(=O)[C@H](NC(=O)[C@@H]4NC(=O)[C@@H](NC2=O)c2cc(O)cc(c2)Oc2cc1ccc2O)c1ccc(O)c(c1)-c1c(O)cc(O)cc1[C@@H](C(=O)O)NC3=O | - | 48 µM
Nc1nc(=O)n([C@@H]2CC[C@H](CO)O2)cc1F | - | 15 µM
O=c1nc2oc(CCOC3CCCCO3)cc2cn1[C@H]1C[C@H](O)[C@@H](CO)O1 | - | >40 µM
N#C/C(=C/c1ccc(Cl)cc1Cl)S(=O)(=O)c1cccc[n+]1[O-] | - | 7.1 µg/mL
OCCOCc1c(-c2ccccc2)nc2ccccn12 | - | 135 µg/mL
COc1cc(/C=C(/C#N)Sc2cccc[n+]2[O-])cc(OC)c1OC | - | 3.3 µg/mL
CCCCCCc1cc2cn([C@H]3C[C@H](O)[C@@H](CO)O3)c(=O)nc2o1 | - | >200 µM
CN(C)C1(C23CC4CC(CC(C4)C2)C3)CCCC1 | - | >50 µg/mL
Cc1ccc(C)c(C(C#N)Sc2cccc[n+]2[O-])c1 | - | 2 µg/mL
Nc1ncnc2c1ncn2[C@@H]1O[C@H](/C=N/O)[C@@H](O)[C@@H]1O | - | 34 µg/mL
Cc1ccccc1CS(=O)(=O)c1cccc[n+]1[O-] | - | 23 µg/mL
CC(C)C1NC(=O)N(C2CCCC2)C1=O | MTT | >50 µg/mL
COc1ccc(-c2cc(C)c3ncc(CSCCc4ccccc4)n3c2)cc1 | - | 25.8 µg/mL
COc1cc(C=NNC(=O)COc2cccc3ccccc23)cc(OC)c1OC | - | 47.9 µg/mL
CCCCc1ccc(CNCc2c(O)cc3c(c2O)-c2cc(ccc2O)[C@H]2NC(=O)[C@@H]4NC(=O)[C@H]5NC(=O)[C@@H](Cc6ccc(c(Cl)c6)Oc6cc4cc(c6O)Oc4ccc(cc4Cl)[C@@H](O)[C@H](NC2=O)C(=O)N[C@@H]3C(=O)O)NC(=O)[C@H](N)c2ccc(O)c(c2)Oc2cc(O)cc5c2)cc1 | - | >50 µM
O=c1nc2oc(CCCC3OCCCO3)cc2cn1[C@H]1C[C@H](O)[C@@H](CO)O1 | - | >200 µM
O=C(COc1cccc2ccccc12)NN=Cc1c(O)ccc2ccccc12 | - | 1.94 µg/mL
CC1(C)CCCN1CC12CC3CC(CC(C3)C1)C2 | - | >50 µg/mL
Nc1nc(N)c2ncn(C[C@@H](CO)OCP(=O)(O)O)c2n1 | - | 82 µM
NC1(C23CC4CC(CC(C4)C2)C3)CCCC1 | - | >50 µg/mL
Cc1cc(-c2cccs2)cn2c(CSCCc3ccccc3)cnc12 | - | 32 µg/mL
CCCCCCCc1cc2cn(C3CCCC3)c(=O)nc2o1 | - | 194 µM
Nc1ncnc2c1ncn2[C@@H]1O[C@H](C=O)C[C@H]1O | - | >50 µg/mL
CC(=O)OC(C(C)C(C)C(C)(C)OC(C)=O)C1OC12C(O)CC1C3CCC4CC(=O)CCC4C3CCC12CO | MTT | >50 µg/mL
CC(c1ccc(S(C)(=O)=O)cc1)S(=O)c1cccc[n+]1[O-] | - | 0.45 µg/mL
Nc1ncnc2c1ncn2[C@@H]1O[C@H](C=O)[C@@H](O)[C@H]1O | - | >50 µg/mL
CCCCCCCc1nc2c(N)ncnc2n1[C@H]1C[C@H](O)[C@@H](CO)O1 | - | 13 µg/mL
Cc1cc(I)cn2c(CSCCc3ccccc3)cnc12 | - | >50 µg/mL
COc1cc(CS(=O)c2cccc[n+]2[O-])cc(OC)c1OC | - | 40 µg/mL
Nc1ncnc2c1ncn2C[C@@H](CF)OCP(=O)(O)O | - | >150 µM
CCc1ccc(CS(=O)(=O)c2cccc[n+]2[O-])cc1 | - | 16 µg/mL
Cc1ccn2c(COCCO)cnc2c1 | - | >200 µg/mL

The first 7 rows once more:

smiles,read by,value
CCCCCCCCCCc1cc2cnc(OCC3CCCCC3)nc2o1,-,>200 µM
COc1ccc(C=NNC(=O)COc2cccc3ccccc23)cc1O,-,27.7 µg/mL
CC(C)C[C@H](NC(=O)n1nnc2ccccc21)C(=O)NC1CCCCC1,-,76 µg/mL
CC#Cc1nc2c(N)ncnc2n1[C@H]1C[C@H](O)[C@@H](CO)O1,-,40 µg/mL
Cc1c(Br)cc(Br)c2ncc(CSC(C)c3cccs3)n12,-,>50 µg/mL
CC(C)C[C@H](NC(=O)n1nnc2ccccc21)C(=O)NC(c1ccccc1)c1ccccc1,-,40 µg/mL
CN1CCCC1C12CC3CC(CC(C3)C1)C2,-,>50 µg/mL